Reference: PubChem BioAssay AID624099 (ICCB-Longwood, 2012)
Shown is an unselected part of about 21,000 reagents tested. Over the whole deposit, 497 (2.4%) are marked active. 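Higher z means weaker E2 silencing; only reporter increases were scored, and knock-downs that hurt cell survival may mask genuine repressor factors.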

- Purpose: 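Knock-downs relieving repression by E2 of an HPV18 LCR luciferase reporter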 (primary screen)
- Cells: human C33A cervical carcinoma cells (HPV-negative) stably expressing BPV1 E2 and an HPV18 LCR luciferase reporter
- Knock-down reagent: siRNA pool against human genes, 40 nM
- Timing: 72 h
- Read-out: 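HPV18 LCR reporter light per well, converted to plate-wise z-scores that exclude control wells, and averaged over triplicate plates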
- Scale: mean z-score and z-score: higher = stronger reporter signal, weaker E2 silencing
- Hit rule: 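Hit if mean z-score reaches 2 and two or more of three replicate z-scores also reach 2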

The first 4 records, ahead of the listing:
gene	mean z-score	z-score, replicate A	z-score, replicate B	z-score, replicate C	activity call
ARMC3	0.45	0.27	0.57	0.5	inactive
HLA-DOA	-0.66	-0.98	-0.17	-0.84	inactive
PRRT3	-0.77	-0.95	-0.48	-0.86	inactive
APAF1	0.21	0.4	0.03	0.19	inactive

Results, from the start:
gene	mean z-score	z-score, replicate A	z-score, replicate B	z-score, replicate C	activity call
ARMC3	0.45	0.27	0.57	0.5	inactive
HLA-DOA	-0.66	-0.98	-0.17	-0.84	inactive
PRRT3	-0.77	-0.95	-0.48	-0.86	inactive
APAF1	0.21	0.4	0.03	0.19	inactive
U2AF1L4	-2.14	-2.31	-2.33	-1.79	inactive
LINC01120	0.17	0.4	-0.14	0.23	inactive
AQP4-AS1	-1.82	-2.02	-1.46	-1.99	inactive
SPR	0.46	0.21	0.54	0.63	inactive
RASSF1	-1.42	-1.72	-1.11	-1.44	inactive
SCG3	1.02	1.18	1.39	0.5	inactive
RBP4	-0.98	-0.78	-1.12	-1.05	inactive
LOC388429 (retired record)	0.21	0.36	-0.38	0.64	inactive
MSX1	1.19	1.51	1.4	0.67	inactive
LINC00654	-1.19	-1.17	-1.01	-1.39	inactive
LOC387690 (retired record)	0.78	0.53	1.17	0.65	inactive
VLDLR-AS1	-0.58	-0.66	-0.55	-0.52	inactive
NPRL2	1.2	1.01	1.18	1.41	inactive
RFC4	-0.21	0.12	-0.74	0	inactive
KCND1	-0.43	-0.25	-0.43	-0.61	inactive
HOMER1	0.32	0.24	0.51	0.21	inactive
RPL39L	0.07	0.57	-0.12	-0.26	inactive
VANGL2	-0.2	-0.18	-0.08	-0.33	inactive
SPOUT1	0.39	0.69	0.11	0.37	inactive
HORMAD2	-0.17	0.21	-0.06	-0.67	inactive
KRTAP21-2	0.42	0.06	0.27	0.93	inactive
AKAP8L	-0.27	-0.08	-0.42	-0.29	inactive
CRYBA4	-0.54	-0.53	-0.51	-0.58	inactive
ENOX1	1.02	0.7	0.71	1.64	inactive
CDA	-0.05	0.54	-0.58	-0.1	inactive
CFL2	0.71	0.69	0.54	0.89	inactive
COMT	-1.91	-1.3	-2.34	-2.09	inactive
TRAM1L1	0.2	0.77	0.02	-0.19	inactive
ING2-DT	1.03	1.09	1.42	0.59	inactive
LCP2	0.37	0.28	0.28	0.56	inactive
TEX26	-0.42	-0.67	0.07	-0.68	inactive
C1orf198	-0.04	-0.25	-0.09	0.23	inactive
PTGFRN	0.31	0.19	0.46	0.29	inactive
RPUSD4	1.08	0.94	1.01	1.3	inactive
COPS6	-0.39	-0.61	-0.51	-0.04	inactive
SLC25A38	1.22	1.11	1.51	1.04	inactive
SMARCD2	-0.9	-0.86	-0.87	-0.96	inactive
SYPL1	-0.41	-0.2	-0.59	-0.45	inactive
TMEM207	1.88	1.86	1.7	2.06	inactive
THOC2	-2.31	-2.38	-2.4	-2.14	inactive
TBPL1	-0.07	-0.04	-0.02	-0.14	inactive
DKFZP586I1420	-0.75	-0.84	-0.52	-0.88	inactive
KCTD12	1.38	1.52	1.1	1.53	inactive
ZNF764	-1.51	-1.52	-1.23	-1.79	inactive
LOC339065 (retired record)	-0.5	-0.54	-0.77	-0.19	inactive
CCDC43	-0.72	-0.78	-0.61	-0.76	inactive
B4GALT2	0.14	0.09	-0.18	0.5	inactive
IGFL1	0.12	-0.21	0.54	0.03	inactive
ZNF41	0.71	0.84	0.72	0.56	inactive
RUNX1	-0.65	-0.69	-0.64	-0.62	inactive
MTRF1L	0.74	0.77	0.73	0.72	inactive
MAP2K3	0.2	0.08	0.43	0.09	inactive
TNFRSF25	0.16	0.24	0.23	0	inactive
